Source: article PMC4894688

Tests used:
[1] = molecular target: His6-GcsR (Pseudomonas aeruginosa PAO1) (UniProt Q9I133); experiment: EMSA; settings: 200 nM protein; EMSA: 25 mM Tris-acetate pH 8.0, 8 mM Mg acetate, 10 mM KCl, 1 mM DTT, 30 min at 30 C, 2 nM probe; native PAGE; recombinant protein; protein details: N-terminal His6; label: 5' Cy5 (unlabeled as competitor); probe letters rebuilt from the primers and the genome; part of a longer molecule
[2] = molecular target: His6-GcsR (Pseudomonas aeruginosa PAO1) (UniProt Q9I133); experiment: competition with a labelled probe; settings: 100 nM unlabeled PPA5530 vs Cy5-PgcvH2; EMSA: 25 mM Tris-acetate pH 8.0, 8 mM Mg acetate, 10 mM KCl, 1 mM DTT, 30 min at 30 C, 2 nM probe; native PAGE; recombinant protein; protein details: N-terminal His6; label: 5' Cy5 (unlabeled as competitor); probe letters rebuilt from the primers and the genome; part of a longer molecule

“CGCGGGAAAGCCGCGTGGGGACTGGGTTGGAAGAGGAGCGGGGTGGTCTTGGCCGAGCGGGAGTCCGCCGACCGGGAGTGTGGATAAGCGGAAATCCGCCGATCCTTCAGGGCAAAGGGTCCGATAGCGACACCAGGTGCAGGCGAGGGCGAATAACCGCAGCGTGGTTATCCGCCGATTCGACGGCAGGCCGGGATCGCTTGGCTCTCAGTG (double strand) [PPA5530]”: no binding [1]; no binding [2].

The exact form of at least one protein or probe is not confirmed. Negatives hold for the conditions tested.
